# Source: PubChem BioAssay AID504761 (Drosophila RNAi Screening Center, 2011)
# Assay: 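Genome-wide fly cell screen for genes dengue virus requires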 (primary screen)
# Cells: D.Mel-2 cells from Drosophila
# Knock-down reagent: long dsRNA against Drosophila genes
# Treatment: infection with dengue virus type 2; dose and infection time not stated
# Read-out: 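Cells stained for dengue envelope protein and imaged; percent of infected cells per well on duplicate plates, ranked by infection, with stained nuclei counted for cell number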
# Direction: infection score: higher = more virus-infected cells; cell count: higher = more cells in the well
# Rule for the call: 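Very low infection ranking in both replicate wells (chance probability at most 0.065), then a retest showing infection dropped 1.5-fold or more at p below 0.05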
# Meaning of the calls: active = confirmed: knock-down lowers infection; inactive = not picked or not confirmed
# The screen tested about 22,000 reagents; shown is an unselected part of those that have a named target and a result. Of all reagents, 116 (0.52%) were called active. 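Calls depend on retest data that are not deposited; infection was ranked per plate without normalising between plates; the unit of the infection score is not given.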 Raw values are not corrected between plates. A plus sign joins genes that one reagent is predicted to hit. Further read-outs or replicates are left out here. Reagent sequences are not shown. Not given: the amount of reagent, the time to read-out.
gene knocked down,dsRNA,"infection score, replicate 1","infection score, replicate 2","cell count, replicate 1",call
wek (weckle),DRSC03561,15.5,13.7,5932,inactive
CG32228,DRSC22296,1.19,10.8,5728,inactive
Rim (Rab3 interacting molecule),DRSC16224,1.72,2.5,6159,inactive
Rim (Rab3 interacting molecule),DRSC16226,3.03,24.2,725,inactive
Rim (Rab3 interacting molecule),DRSC16227,1.49,4.46,6665,inactive
Rim (Rab3 interacting molecule),DRSC22406,1.87,2.46,6460,inactive
mia (meiosis I arrest),DRSC12137,7.29,9.04,2743,inactive
CG34169,DRSC01579,4.57,11.3,6571,inactive
Optix,DRSC05078,6.25,4.97,6588,inactive
Optix,DRSC07484,6.77,16.9,5731,inactive
Optix,DRSC21963,1.45,2.98,6607,inactive
Optix,DRSC29089,13.2,14.4,3433,inactive
CG15731,DRSC19698,7.93,6.23,6067,inactive
CG15731,DRSC21820,4.42,3.03,6767,inactive
CG15731,DRSC26144,3.78,0.87,6275,inactive
CG10737,DRSC05999,4.84,6.21,1136,inactive
CG10737,DRSC26112,7.54,4.86,6369,inactive
CG4866,DRSC06899,20.2,10.4,5813,inactive
hfp (half pint),DRSC08731,18.1,18.8,3986,inactive
hfp (half pint),DRSC08732,4.21,2.08,5650,inactive
hfp (half pint),DRSC22408,3.73,5.9,6120,inactive
hfp (half pint),DRSC25143,2.9,9.29,6170,inactive
spdi (split discs),DRSC18487,8.61,14.6,6690,inactive
spdi (split discs),DRSC18488,3.1,9.14,6526,inactive
Capr (Caprin),DRSC10346,4.09,1.28,5922,inactive
Capr (Caprin),DRSC26777,6.74,2.91,5788,inactive
Pex10 (Peroxin 10),DRSC08599,5.81,12.6,5023,inactive
Pex10 (Peroxin 10),DRSC22021,13.5,6.92,6565,inactive
PpN58A (Protein phosphatase N at 58A),DRSC04642,12,22.9,5971,inactive
PpN58A (Protein phosphatase N at 58A),DRSC28243,11.4,,4142,inactive
CG7730,DRSC10909,2.47,9.66,6638,inactive
CG1304,DRSC20494,1.41,7.29,6308,inactive
CG1304,DRSC25704,3.38,4.12,6414,inactive
Nplp4 (Neuropeptide-like precursor 4),DRSC00391,23.7,11.4,3016,inactive
Hsc70-5 (Heat shock protein 70 cognate 5),DRSC07442,8.08,25.8,4580,inactive
Hsc70-5 (Heat shock protein 70 cognate 5),DRSC24015,4.24,12.8,3706,inactive
CG14515,DRSC14867,6.58,5.32,6702,inactive
CG31706,DRSC22704,7.87,0.67,6457,inactive
CG32536,DRSC28001,19,7.54,4584,inactive
Obp50c + Obp50b,DRSC05482,2.29,0.95,6157,inactive
CG32833,DRSC04596,11.4,24.2,6176,inactive
Mcm10 (Minichromosome maintenance 10),DRSC03162,16,27.4,6047,inactive
Mcm10 (Minichromosome maintenance 10),DRSC27996,4.35,18,6453,inactive
"Pka-C1 (Protein kinase, cAMP-dependent, catalytic subunit 1)",DRSC03399,22.6,9.96,6315,inactive
"Pka-C1 (Protein kinase, cAMP-dependent, catalytic subunit 1)",DRSC23314,1.96,6.87,6214,inactive
"Pka-C1 (Protein kinase, cAMP-dependent, catalytic subunit 1)",DRSC28268,15.7,12.6,4681,inactive
CG8677 + CG31626,DRSC01838,3.71,6.76,781,inactive
CG14629,DRSC18476,2,1.19,6098,inactive
CG14629,DRSC23909,10.1,8.51,6086,inactive
Muc68D (Mucin 68D),DRSC10569,10.7,8.57,6359,inactive
CG15803,DRSC15121,1.54,1.55,6741,inactive
Rac2,DRSC11262,8.59,6.13,6238,inactive
Rac2,DRSC25086,8.77,2.65,6591,inactive
CG5554,DRSC04513,4.35,5.52,6752,inactive
CG5554,DRSC25559,4.82,11.5,6188,inactive
CG7856,DRSC04896,14.9,7.52,4853,inactive
CG6709 + Hez,DRSC10165,4.83,17.2,6288,inactive
CG6709 + Hez,DRSC10698,19.5,7.42,6032,inactive
chp (chaoptin),DRSC16925,9.97,2.08,5995,inactive
chp (chaoptin),DRSC26106,19.4,4.56,5873,inactive
rpk (ripped pocket),DRSC12386,13.3,11.1,5892,inactive
rpk (ripped pocket),DRSC21656,1.93,1.04,6329,inactive
esc (extra sexcombs),DRSC03529,32.8,15.3,5887,inactive
esc (extra sexcombs),DRSC28970,12,0.56,4870,inactive
CG14180 (retired record),DRSC10179,3.76,4.98,5529,inactive
CG14180 (retired record),DRSC25107,2.77,4.11,6570,inactive
agt (O-6-alkylguanine-DNA alkyltransferase),DRSC12611,10.3,2.31,5911,inactive
Cda5 (Chitin deacetylase-like 5),DRSC00529,0.73,6.22,6679,inactive
Cda5 (Chitin deacetylase-like 5),DRSC00532,0.96,7.7,6637,inactive
Cda5 (Chitin deacetylase-like 5),DRSC21330,0.39,5.9,6711,inactive
CHOp24,DRSC18310,11.8,3.4,6184,inactive
CG33342 (HDC15381),DRSC13662,1.3,1.15,6443,inactive
Taf5 (TBP-associated factor 5),DRSC07562,22.9,10.5,5485,inactive
Taf5 (TBP-associated factor 5),DRSC29351,28.4,16.6,4294,inactive
